A mixed list of measured activities; the numbers were collected in NIAID ChemDB.

Common to all: target-level tests; species: HIV-1; protein: Integrase; read by: strand transfer; read-out: IC50

a–b is a range or a potency band. ICn: concentration for n% inhibition. Blank or dashed fields: not listed here. Rows are shuffled and stem from different studies.

{"smiles": "O=C(/C=C(\\O)c1ccccc1Cl)C(=O)N1CCN(C(=O)C(=O)/C=C(\\O)c2ccccc2Cl)CC1", "value": ">100 µM"}
{"smiles": "CC1=CC2CC[C@@H](O)[C@H](C)C2[C@@H](/C(O)=C2/C(=O)NC(O)C2=O)[C@@H]1C[C@H]1OC2(CC[C@H](C)[C@@H](c3cc(O)cc(O)c3)O2)[C@@H](C)C[C@@H]1C", "value": "4 µM"}
{"smiles": "CCN(CC)CCCC(C)Nc1ccnc2ccccc12", "value": ">300 µM"}
{"smiles": "O=C1c2c(O)c(=O)n(C3CCN(CC4CC4)CC3)c(=O)n2CCN1Cc1ccc(F)cc1", "value": "<10 µM"}
{"smiles": "CN(C)CCCNC(=O)c1ccc2nc(-c3ccc4nc(-c5ccc(OCCCCCCCOc6ccc(-c7nc8ccc(-c9nc%10ccc(C(=O)NCCCN(C)C)cc%10[nH]9)cc8[nH]7)cc6)cc5)[nH]c4c3)[nH]c2c1", "value": "0.044 µM"}
{"smiles": "Cc1cn2c(=O)c(O)c(C(=O)NCc3ccc(Cl)c(Cl)c3)nc2s1", "value": "0.001–1 µM"}
{"smiles": "O=C1c2c(O)c(=O)n(Cc3nccc4ccccc34)c(=O)n2CCN1Cc1ccc(F)cc1", "value": "<10 µM"}
{"smiles": "O=C(Nc1ccc2c(O)c(N=Nc3ccc(C(=O)O)cc3)c(S(=O)(=O)O)cc2c1)Nc1ccc2c(O)c(N=Nc3ccc(C(=O)O)cc3)c(S(=O)(=O)O)cc2c1", "value": "0.5 µM"}
{"smiles": "O=C(CCCCCNC(=O)CCCC[C@@H]1SC[C@@H]2NC(=O)N[C@@H]21)NCCCCCC(=O)NCc1cn(Cc2ccc(C(=O)c3cccc(/C(O)=C/C(=O)C(=O)O)c3)cc2)nn1", "value": "12.4 µM"}
{"smiles": "C[C@H](NC(=O)/C=C(\\O)C(=O)O)c1ccccc1", "value": ">70 µM"}
{"smiles": "CN1CCn2c3c(c(O)c2C1=O)C(=O)N(Cc1ccc(F)cc1)CC3", "value": "<1 µM"}
{"smiles": "CC(C)n1c(=O)c(O)c2n(c1=O)C(CCO)CN(Cc1ccc(F)cc1)C2=O", "value": "<10 µM"}
{"smiles": "Cc1cn2c(=O)c(O)c(-c3ncc(Cc4ccc(F)c(Cl)c4)s3)nc2s1", "changes": "E92Q/N155H", "value": "1–10 µM"}
{"smiles": "Cn1c(/C(O)=C/C(=O)C(=O)O)cc2cc3c(cc21)OCO3", "value": "2 µM"}
{"smiles": "CC(C)n1c(=O)c(O)c2n(c1=O)CCN(Cc1ccccn1)C2=O", "value": "<10 µM"}
{"smiles": "CCn1cc(C2=C(O)C(=O)NC2=O)c2ccccc21", "value": "300 µM"}
{"smiles": "CNC(=O)NC[C@H]1O[C@@H](n2cnc3c(NC(=O)Nc4ccccc4)ncnc32)[C@@H]2OC(=O)C[C@@H]21", "strain": "NL4-3", "value": ">10 µM"}
{"smiles": "CCC/C=C/CCCCCCc1cc(O)cc(O)c1C(=O)OC(CCC)CCCCCCCc1cc(O)cc(O)c1", "value": "88 µM"}
{"smiles": "O=C(Nc1ccc2c(O)cc(S(=O)(=O)O)cc2c1)Nc1ccc2c(O)cc(S(=O)(=O)O)cc2c1", "value": "4 µM"}
{"smiles": "O=C(/C=C(\\O)C(=O)O)CC(=O)c1ccccc1", "value": "34 µM"}
{"smiles": "Cc1cn2c(=O)c(O)c(-c3ncc(Cc4ccc(Cl)cc4)s3)nc2s1", "changes": "G140S/Q148H", "value": ">10 µM"}
{"smiles": "CN1C(=O)[C@@H](c2cc(Cl)c(O)c(Cl)c2)NC(=O)[C@@H]2NC(=O)[C@@H](c3cc(Cl)c(O)c(Cl)c3)NC(=O)[C@H](N)Cc3c[nH]c4c(cccc34)-c3cc2cc(c3O)Oc2ccc(cc2)C[C@H]1C(=O)O", "value": "3–10 µM"}
{"smiles": "Cc1cn2c(=O)c(O)c(C(=O)NCc3ccc(F)cc3)nc2s1", "value": "1–10 µM"}
{"smiles": "O=C(O)/C=C/c1ccc2c(c1)c(=O)c(/C(O)=C/C(=O)C(=O)O)cn2Cc1ccc(F)cc1", "value": "0.03 µM"}
{"smiles": "O=C1/C(=C/c2cc(O)c(O)c(O)c2)CC(C(=O)O)C/C1=C\\c1cc(O)c(O)c(O)c1", "value": "0.3 µM"}
{"smiles": "O=C(O)/C(O)=C/C(=O)N(Cc1ccc(F)cc1)Cc1ccccc1Cl", "value": "<70 µM"}
{"smiles": "O=C(O)c1cc(-c2cccn2Cc2ccc(F)cc2)on1", "value": "475 µM"}
{"smiles": "O=C(Nc1ccc2c(O)c(N=Nc3cccc(C(=O)O)c3)c(S(=O)(=O)O)cc2c1)C(=O)Nc1ccc2c(O)c(N=Nc3cccc(C(=O)O)c3)c(S(=O)(=O)O)cc2c1", "value": "2.5 µM"}
{"smiles": "COc1cccc(CNC(=O)/C=C(\\O)C(=O)O)c1", "value": "<70 µM"}
{"smiles": "O=C1c2c(O)c(=O)n(C3CCSCC3)c(=O)n2CCN1Cc1ccc(F)cc1", "value": "<10 µM"}
{"smiles": "CNC(=O)NC[C@H]1O[C@@H](n2cnc3c(NC(=O)Nc4ccccc4)ncnc32)[C@H](O)[C@@H]1CC(=O)O", "strain": "NL4-3", "value": ">10 µM"}
{"smiles": "CN(Cc1ccc(OCc2ccccc2)cc1)C(=O)/C=C(\\O)C(=O)O", "value": ">70 µM"}
{"smiles": "COc1ccccc1C(=O)CC(=O)/C=C(\\O)C(=O)O", "value": "190 µM"}
{"smiles": "O=C(O)CC1C/C(=C\\c2ccc(O)c(O)c2)C(=O)/C(=C/c2ccc(O)c(O)c2)C1", "value": "1.2 µM"}
{"smiles": "O=C1c2c(O)c(=O)n(C3CCOCC3)c(=O)n2CCN1Cc1ccc(F)cc1", "value": "<10 µM"}
{"smiles": "COc1cc(NC(C)CCCN)c2ncccc2c1", "value": "11.1 µM"}
{"smiles": "CN(Cc1ccc(F)c(F)c1)C(=O)/C=C(\\O)C(=O)O", "value": "<70 µM"}
{"smiles": "CCOC(=O)c1ccc(N=Nc2c(S(=O)(=O)O)cc3cc(NC(=O)Nc4ccc5c(O)c(N=Nc6ccc(C(=O)OCC)cc6)c(S(=O)(=O)O)cc5c4)ccc3c2O)cc1", "value": "1.3 µM"}
{"smiles": "O=C1/C(=C/c2ccc(O)c(O)c2)CN(Cc2ccccc2)C/C1=C\\c1ccc(O)c(O)c1", "value": "2.2 µM"}
{"smiles": "O=C(/C=C(\\O)C(=O)O)/C=C(\\O)c1ccccc1", "value": "600 µM"}
{"smiles": "Cc1ncc(COP(=O)(O)O)c(C=O)c1O", "value": "18 µM"}
{"smiles": "COC(=O)c1cc(-c2cccn2Cc2ccc(F)cc2)on1", "value": ">1000 µM"}
{"smiles": "O=C1/C(=C/c2cc(O)c(O)c(O)c2)CC/C1=C\\c1cc(O)c(O)c(O)c1", "value": "0.9 µM"}
{"smiles": "[N-]=[N+]=NCc1cccc(C(=O)CC(=O)C(=O)O)c1", "value": "0.76 µM"}
{"smiles": "Cc1cn2c(=O)c(O)c(-c3ncc(Cc4ccc(F)cc4)s3)nc2s1", "changes": "E92Q/N155H", "value": "0.001–1 µM"}
{"smiles": "CC(=O)/C=C/c1ccc(N=Nc2c(S(=O)(=O)O)cc3cc(NC(=O)Nc4ccc5c(O)c(N=Nc6ccc(/C=C/C(C)=O)cc6)c(S(=O)(=O)O)cc5c4)ccc3c2O)cc1", "value": "3.2 µM"}
{"smiles": "CCN(CC)CCCC(C)Nc1cncc2ccccc12", "value": ">300 µM"}

4 of the rows above, restated:

| smiles | strain | changes | value |
|---|---|---|---|
| O=C1c2c(O)c(=O)n(C3CCOCC3)c(=O)n2CCN1Cc1ccc(F)cc1 | - | - | <10 µM |
| CCn1cc(C2=C(O)C(=O)NC2=O)c2ccccc21 | - | - | 300 µM |
| O=C1/C(=C/c2cc(O)c(O)c(O)c2)CC/C1=C\c1cc(O)c(O)c(O)c1 | - | - | 0.9 µM |
| [N-]=[N+]=NCc1cccc(C(=O)CC(=O)C(=O)O)c1 | - | - | 0.76 µM |